# Human monoclonal antibodies against the spike receptor-binding domain (heavy:light variable regions). IC50 against pseudoviruses bearing the spike of naturally observed variants; lower = stronger; >10 µg/ml means not reached at the top dose. No active / inactive call. The stated detection limit is 0.0005 µg/ml; values near or below 0.001 µg/ml lie at the floor of the assay.
# B1: BD55-1416 (protein)
# chain 1: EVQLVESGGGLVHLGGSLRLSCSASGFTFSRYAMHWVRQAPGKGLEYVSGISSDGGIRDYADSVKGRFTISRDNSKNTLYLQMGSLRADDTAIYYCVKDDLTSVTTLFDYWGQGTLVTVSS
# chain 2: DIQMTQSPFSLSASVGDRVTITCRASQSISTYLNWYQQKPGKAPKLLIYSASSLQSGVPSRFSGSGSGTDFTLTISSLRPEDFATYYCQQSYTNPPTFGQGTKLDIK
# B2: BD55-1435 (protein)
# chain 1: EVQLVESGGGLVKPGGSLRLSCAASGFTFTNAWMSWVRQAPGKGLEWVGLIKSNTDGGTTDYAAPVKGRVTISRDDSKNTVYLQMNSLKTEDTAVYYCTQSRWFLLPFLNWGQGTLVTVSS
# chain 2: QSVLTQPPSASGTPGQRVTISCSGSSSNIGSNAVNWYQQLPGTAPKLLIYNSNQRPSGVPDRFSGSKPGTSASLAISGLQSEDEADYYCAAWDDSLNGWLFGGGTKLTVL
# B3: BD55-1442 (protein)
# chain 1: QVQLVQSGAEVKKPGSSVKVSCKASGGTFSSYAISWVRQAPGQGLEWMGRIIPIIGIANYAQKFQGRVTITADKSTSTVYMELSSLRSEDTAVYYCARRGGPMVRGGDYGLDVWGQGTTVTVSS
# chain 2: QSVLTQPPSVSGAPGQRVTISCTGSNSNIGAGYDVHWYQQLPGTAPKLLIYGNSNRPSGVPDRFSGSKSDTSASLAITGLQVEDEADYYCQSYDSSLSDYVFGTGTEVTVL
# B4: BD55-1507 (protein)
# chain 1: EVQLVESGGGLVQPGGSLRLSCSASGFTFSSYSFHWVRQAPGKGLEHVSAISRNGDITDSADSVKGRFTISRDNSKNTLYLQMSSLRVEDTARYYCVKDVDTVMVTLFDYWGQGTLVTVSS
# chain 2: DIQMTQSPSSLSASVGDRVTITCRASQSISRYLNWYQQKPGKAPKLLIYVTSSLQSGVPSRFSGSGSGTDFTLTISSLQPEDFATYYCQQSYTTPYTFGQGTKLEIK
# B5: BD55-1576 (protein)
# chain 1: QVQLVESGTEVKKPGDSVKVSCKASGYTFTGHYIHWVRQAPGQGLEWMGWISPMTGATKYAQRFRDRVTMTIDTSTTTGYMELRRLTGDDAAIYYCARDLSFAMVRGDLDSWGQGALVTVFS
# chain 2: QSVLTQPASVSGSPGQSITISCTGTTSDAESYNVVSWYQQHPGKVPKLIIYEGTKRPSGVSNRFSGSKSGDTASLTISGLQAEDEADYYCCSYAGSSTWVFGRGTKLTVL
# B6: BD55-1579 (protein)
# chain 1: QVQLVQSGAELKNPGSSVKVSCKTSGDTFTKYAITWVRQAPGQGLEWMGRIIPLFGMANYAQKFQGRVTFTADKSTDTVYMEMTSLTSEDTAVYFCARGAYQSDSSGYHCHHWGQGTLVTVSS
# chain 2: EIVLTQSPGILSLSPGERATLSCRASQIVSGNYLAWYQQKVGQAPRLLMYGASNRATGVPDRFSGSGSGTDFTLTITRVEPEDFAVYYCQQYVSSPRSFGQGTKVEFK
# B7: BD-605 (protein)
# chain 1: EVQLVESGGGLIQPGGSLRLSCAASGFTVSSNYMSWVRQAPGKGLEWVSVIYSGGSTFYADSVKGRFTISRDNSKNTLYLQMNSLRAEDTAVYYCARDLGAYGMDVWGQGTTVTVSS
# chain 2: DIQLTQSPSFLSASVGDRVTITCRASQGISSYLAWYQQKPGKAPKLLIYAASTLQSGVPSRFSGSGSGTEFTLTISSLQPEDFATYYCQQLNSDLYTFGQGTKLEIK
# B8: BD55-1811 (protein)
# chain 1: QKQLVQSGPEVKKPGTSVKVSCKTSGFTFGTSAVQWVRQARGQRLEWIGWIVVGSGNTDYAQNFQDRVTITKDMSTSTAYLEVNSLRSEDTAVYYCAAEGGYCRGGSCYTFSYWGQGTLVTVSS
# chain 2: DIVLTQTPLSLAITPGQPASISCKSSQSLQHSDGKTYLYWYLQKPGQPPQLLISEVSNRFSGVPDRFSGSGSGTDFTLKISRVEADDVGVYFCMQTFRLPRTFGQGTKVEIK
# B9: BD55-1868 (protein)
# chain 1: EVQLVESGGGLVQPGGSLRLSCTASGFSFSNYHMNWVRQTPGKGLEWVSYISSSSGPIYLADSVKGRFTISRDNARNSLYLQMNSLRAEDTAVYYCATLKWLRGSFDYWGQGTLVTVSS
# chain 2: NFMLTQPHSVSESPGKTVTISCTGSSGSIASNYVQWYQQRPGSAPTTVIYEDYQRPSGVPDRFSGSIDSSSNSASLTISGLKTEDEADYYCQSYDSSNVNWVFGGGTKLTVL
# B10: BD-817 (protein)
# chain 1: QVQLVQSGTEVKRPGSSVKVSCKISGGTFSNYAITWVRQAPGQGLEWMGRIIPIFGMADYAQKFQGRVTITADKSTSTAYMELSRLTSEDTAIYYCNFDINTYRELQNWGQGTLVTVSS
# chain 2: DIQMTQSPSSLSASIGDRVTITCQASQDIKKSLHWFQQKPGKAPRLLIYDASNLETGVPSRFSGSGSGTDFTFTISSLQPEDFATYFCQQYDNLPLTFGGGTKVDFK
# B11: BD-818 (protein)
# chain 1: QVQLVQSGAELRKPGSSVKLSCKASGGTFGSHTINWVRQAPGQGLEWMGRIMPILGVANYAQKFEGRVTITADKSTSTAFMELSSLRSDDTGVYYCARFDLHAWYFDLWGRGTLITVSS
# chain 2: QSVLTQPPSVSGAPGQRVTISCTGSNSNIGAGYDVHWYQQLPGTAPKLLIYGNSNRPSGVPDRFSGSKSDTSASLAITGLQAEDEADYYCQSYDSDLSDIVFGGGTKLTVL
# B12: BD-822 (protein)
# chain 1: QVTLRESGPALVKPTQTLTLTCSFSGFSLTTRGMCVSWIRQSPGKALEWLARIDWDDDKHYSTSLNTRLTISKDASENQVVLQLTNMDPVDTATYYCARETVAGPIIDYWGQGTLVTVSS
# chain 2: DIQMTQSPSSLSASVGDRVTITCRASHNINKYLNWYQQKPGKAPKLLIYITSTLQSGVPSRFSGSGSGTDFTLTISSLQPEDFATYYCQQSYSTPRTFGQGTKVEIK
# B13: BD-824 (protein)
# chain 1: QVQLVQSGAEVKKPGASVKVSCRASGYTFTTYSMHWVRQAPGQRLEWMGWINAGNGNTKYSQKFQGRVTITTDTSASTAYMELSRLRSEDTAVFYCARGGNNWFDYFDYWGQGTLVTVSS
# chain 2: DIQMTQSPSTLSASVGDRVTITCRASQSINSWLAWYQQIRGKAPKLLIYDASSLESGVPSRFSGSGSGTEFTLTISSLQPDDFATYYCQQYKGYPWTFGQGTKVEIK
# Biological target: SARS-CoV-2 Omicron BA.1 spike pseudovirus
# Experiment: pseudovirus neutralization IC50; higher = weaker neutralization
# Experimental: (§1)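 Single-round VSV luciferase pseudovirus mixed with antibody dilutions for 1 h and put on Huh-7 cells for about a day; IC50 from the dose curve.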
row,Binder,pseudovirus neutralization IC50 [µg/mL]
1,B1,> 10
2,B2,> 10
3,B3,0.392
4,B4,> 10
5,B5,> 10
6,B6,> 10
7,B7,> 10
8,B8,> 10
9,B9,> 10
10,B10,> 10
11,B11,0.0201
12,B12,> 10
13,B13,> 10

# Biological target: SARS-CoV-2 Omicron BA.2 spike pseudovirus
# Experiment: as above
# Experimental: as §1
row,Binder,pseudovirus neutralization IC50 [µg/mL]
1,B1,> 10
2,B2,> 10
3,B3,0.42
4,B4,> 10
5,B5,> 10
6,B6,> 10
7,B7,> 10
8,B8,> 10
9,B9,> 10
10,B10,> 10
11,B11,0.025
12,B12,> 10
13,B13,0.0343

# Biological target: SARS-CoV-2 Omicron BA.2.75 spike pseudovirus
# Experiment: as above
# Experimental: as §1
row,Binder,pseudovirus neutralization IC50 [µg/mL]
1,B1,> 10
2,B2,> 10
3,B3,0.458
4,B4,> 10
5,B5,> 10
6,B6,> 10
7,B7,> 10
8,B8,> 10
9,B9,> 10
10,B10,> 10
11,B11,0.0253
12,B12,> 10
13,B13,> 10

# Biological target: SARS-CoV-2 Omicron BA.5 spike pseudovirus
# Experiment: as above
# Experimental: as §1
row,Binder,pseudovirus neutralization IC50 [µg/mL]
1,B1,> 10
2,B2,> 10
3,B3,8.73
4,B4,> 10
5,B5,> 10
6,B6,> 10
7,B7,> 10
8,B8,> 10
9,B9,> 10
10,B10,> 10
11,B11,1.07
12,B12,> 10
13,B13,0.0438

# Biological target: SARS-CoV-2 Omicron BQ.1.1 spike pseudovirus
# Experiment: as above
# Experimental: as §1
row,Binder,pseudovirus neutralization IC50 [µg/mL]
1,B1,> 10
2,B2,> 10
3,B4,> 10
4,B5,> 10
5,B6,> 10
6,B7,> 10
7,B8,> 10
8,B9,> 10
9,B10,> 10
10,B11,> 10
11,B12,> 10
12,B13,> 10

# Biological target: SARS-CoV-2 Omicron XBB spike pseudovirus
# Experiment: as above
# Experimental: as §1
row,Binder,pseudovirus neutralization IC50 [µg/mL]
1,B1,> 10
2,B2,> 10
3,B4,> 10
4,B5,> 10
5,B6,> 10
6,B7,> 10
7,B8,> 10
8,B9,> 10
9,B10,> 10
10,B11,> 10
11,B12,> 10
12,B13,> 10

# Biological target: SARS-CoV-2 early D614G spike pseudovirus
# Experiment: as above
# Experimental: as §1
row,Binder,pseudovirus neutralization IC50 [µg/mL]
1,B1,1.72
2,B2,0.0506
3,B3,0.0389
4,B4,> 10
5,B5,0.001
6,B6,0.0455
7,B7,0.0935
8,B8,> 10
9,B9,0.34
10,B10,1.55
11,B11,0.022
12,B12,0.003
13,B13,0.029
